In patent US10342779B2 (Therapicon S.R.L., priority 2014, dated 2019):

System: mouse-adapted DENV-2 strain D2S10
Conditions: 75 mg/Kg/day

With `COc1ccc2[nH]cc(CCNC(C)=O)c2c1` [Melatonin, N-acetyl-5-methoxytryptamine] the “protection effects versus Dengue virus induced condition” value was “Partial beneficial effects”.
